Pooled drug test results. Numbers come from NIAID ChemDB, via PubChem.

Common to all: whole-cell or culture tests; agent: HIV-2; cell line: MT-4; read-out: EC50

Neighbouring rows are from separate reports.

SMILES | strain or isolate | method | value
N#Cc1ccc(Nc2nc(Oc3ccc(-c4ccc(C#N)cc4)cc3[N+](=O)[O-])c3sccc3n2)cc1 | ROD | MTT | >107.2 µM
O=C(O)c1cn(CCO)c2ccc(Cc3ccccc3)cc2c1=O | ROD | MTT | 4 µM
C1CNCCNCCCNCCNC1 | ROD | cytopathic effect / MTT | 54 µg/mL
Cc1cc(C)cc(C(=O)c2cccnc2Nc2ccc(O)cc2)c1 | ROD | MTT | >6.44 µM
Cn1ncc2c1S(=O)(=O)N(CCc1ccccc1)C(=O)N2CCc1ccc(Cl)cc1 | ROD | MTT | >56.2 µM
CC(=O)O[C@@]12C[C@@H](C)[C@@]3(O)[C@@H](C=C(CO)C[C@]4(O)C(=O)C(C)=C[C@@H]34)[C@@H]1C2(C)C | EHO | cytopathic effect / MTT | 0.03 µg/mL
Cc1cn([C@H]2C[C@H](N=[N+]=[N-])[C@@H](COC(=O)CCC(=O)OCC3OC4OC5C(COS(=O)(=O)O)OC(OC6C(COS(=O)(=O)O)OC(OC7C(COS(=O)(=O)O)OC(OC8C(COS(=O)(=O)O)OC(OC9C(COS(=O)(=O)O)OC(OC3C(OS(=O)(=O)O)C4OS(=O)(=O)O)C(OS(=O)(=O)O)C9OS(=O)(=O)O)C(OS(=O)(=O)O)C8OS(=O)(=O)O)C(OS(=O)(=O)O)C7OS(=O)(=O)O)C(OS(=O)(=O)O)C6OS(=O)(=O)O)C(OS(=O)(=O)O)C5OS(=O)(=O)O)O2)c(=O)[nH]c1=O | ROD | cytopathic effect / MTT | 3.71 µg/mL
N#Cc1ccc(Nc2nc(Oc3ccc(-c4ccc(C#N)cc4)cc3F)c3sccc3n2)cc1 | ROD | MTT | >125 µM
Fc1cc2nc3n(c2cc1F)C(c1c(F)cccc1F)SC3 | ROD | cytopathic effect / MTT | >37.3 µM
Cc1cc(C)cc(C(=O)c2cccnc2Nc2ccc(C#N)cc2)c1 | ROD | MTT | >128 µM
Cc1cn([C@H]2C[C@H](N=[N+]=[N-])[C@@H](COC(=O)CCC(=O)OC[C@H]3O[C@@H]4O[C@H]5[C@H](O)[C@@H](O)[C@@H](O[C@H]6[C@H](O)[C@@H](O)[C@@H](O[C@H]7[C@H](O)[C@@H](O)[C@@H](O[C@H]8[C@H](O)[C@@H](O)[C@@H](O[C@H]9[C@H](O)[C@@H](O)[C@@H](O[C@H]3[C@H](O)[C@H]4O)O[C@@H]9CO)O[C@@H]8CO)O[C@@H]7CO)O[C@@H]6CO)O[C@@H]5CO)O2)c(=O)[nH]c1=O | ROD | cytopathic effect / MTT | 0.042 µg/mL
Cc1cccc2c1nc1n2C(c2c(F)cccc2Cl)SC1 | ROD | cytopathic effect / MTT | >392 µM
Cc1cn([C@@H]2O[C@H](CO[Si](C)(C)C(C)(C)C)[C@@]3(OS(=O)(=O)C=C3N)[C@H]2O[Si](C)(C)C(C)(C)C)c(=O)n(CC(=O)N[C@@H](CCC(=O)O)C(=O)O)c1=O | ROD | cytopathic effect / trypan blue | 250 µM
FC(F)(F)c1ccc2nc3n(c2c1)C(c1c(Cl)cccc1Cl)SC3 | ROD | cytopathic effect / MTT | >19.3 µM
Nc1ccn([C@@H]2CS[C@H](CO)O2)c(=O)n1 | ROD | MTT | 8.79 µM
CC(CC1CCCCC1)c1cc(=O)[nH]c(SCC(=O)c2ccccc2)n1 | ROD | MTT | 151 µM
Cc1cc(-c2ccc(C#N)cc2)cc(C)c1Oc1nc(Nc2ccc(C#N)cc2)nc2ccsc12 | ROD | MTT | 1.4 µM
Cn1ncc2c1S(=O)(=O)N(CCc1ccc(Br)cc1)C(=O)N2CCc1ccc(Br)cc1 | ROD | MTT | >151.2 µM
Cc1cc(C)cc(C(=O)c2cccnc2Oc2ccccc2)c1 | ROD | MTT | >20.7 µM
O=S1(=O)NC(Cc2ccc3ccccc3c2)=CC(=NCc2ccccc2)N1 | ROD | MTT | >161 µM
N#Cc1ccc(Nc2nc(Oc3ccc(-c4ccc(C#N)cc4)cc3C(F)(F)F)c3sccc3n2)cc1 | ROD | MTT | 95.1 µM
Cc1cc(C)cc(C(=O)c2cccnc2Oc2ccc(C=O)cc2)c1 | ROD | MTT | >33.65 µM
N#Cc1ccc(NC2=NS(=O)(=O)NC(Cc3cccc4ccccc34)=C2)cc1 | ROD | MTT | >254 µM
O=c1[nH]cnc2c1ncn2[C@H]1CC[C@@H](CO)O1 | ROD | MTT | 19 µM
Cc1cc(C)cc(C(=O)c2cccnc2Nc2ccc(/C(N)=N\O)cc2)c1 | ROD | MTT | >30.27 µM
Cn1ncc2c1S(=O)(=O)N(CCc1ccccc1)C(=O)N2CCc1ccc(C#N)cc1 | ROD | MTT | >23.8 µM
Cc1c(CCC2CCCCC2)nc(SCC(=O)c2ccc(F)cc2)[nH]c1=O | ROD | MTT | 7.3 µM
Cc1cc(C)cc(C(=O)c2cccnc2Oc2ccc(N)cc2)c1 | ROD | MTT | >123 µM
O=C(c1ccccc1)c1ccc2nc3n(c2c1)C(c1c(F)cccc1F)SC3 | ROD | cytopathic effect / MTT | >1.3 µM
Cn1ncc2c1S(=O)(=O)N(CCc1ccc(Cl)cc1Cl)C(=O)N2CCc1ccc(Cl)cc1Cl | ROD | MTT | 38.1 µM
Cc1ccc(CN=C2C=C(Cc3ccc4ccccc4c3)NS(=O)(=O)N2)cc1 | ROD | MTT | >144 µM
CCc1c(C(C)C2CCCCC2)nc(SCC(=O)c2ccccc2)[nH]c1=O | ROD | MTT | 194 µM
O=C(O)/C=C(\CC(=O)O)C(=O)O | ROD | cytopathic effect / MTT | >25 µM
N#Cc1ccc(Nc2nc(Oc3ccc(-c4ccc(C#N)cc4)cc3C#N)c3sccc3n2)cc1 | ROD | MTT | >124.5 µM
O=S1(=O)N=C(Nc2ccccc2Cl)C=C(Cc2ccccc2)N1 | ROD | MTT | >182 µM
Cc1cccc2nc3n(c12)C(c1c(F)cccc1F)SC3 | ROD | cytopathic effect / MTT | >21.5 µM
CCc1c(C(C)CC2CCCCC2)nc(SCC(=O)c2ccccc2)[nH]c1=O | ROD | MTT | 32 µM
Cc1cn([C@@H]2O[C@H](CO[Si](C)(C)C(C)(C)C)C3(OS(=O)(=O)C=C3N)[C@H]2O[Si](C)(C)C(C)(C)C)c(=O)n(CC(=O)N[C@H](C(=O)OCc2ccccc2)C(C)C)c1=O | ROD | cytopathic effect / trypan blue | >50 µM
CCc1c(CCC2CCCCC2)nc(SCC(=O)c2ccc(F)cc2)[nH]c1=O | ROD | MTT | 164 µM
COc1ccc2c(c1)nc1n2C(c2c(F)cccc2Cl)SC1 | ROD | cytopathic effect / MTT | >1.8 µM
O=S1(=O)N=C(Nc2ccccc2)C=C(Cc2cccc3ccccc23)N1 | ROD | MTT | >158 µM
Nc1ccn([C@H]2CC[C@@H](CO)O2)c(=O)n1 | ROD | cytopathic effect / MTT | 0.03 µg/mL
O=S1(=O)NC(Cc2ccccc2)=CC(=NCc2ccccc2)N1 | ROD | MTT | >238 µM
Fc1ccc2nc3n(c2c1)C(c1c(F)cccc1F)SC3 | ROD | cytopathic effect / MTT | >162.6 µM
COc1ccc(CN=C2C=C(Cc3ccccc3)NS(=O)(=O)N2)cc1 | ROD | MTT | >300 µM
Cc1cccc2c1nc1n2C(c2c(F)cccc2F)SC1 | ROD | cytopathic effect / MTT | >49.6 µM
C1CNCCNCC(C2CNCCNCCCNCCNC2)CNCCNC1 | ROD | cytopathic effect / MTT | >200 µg/mL
Cc1cc(C)cc(C(=Nc2ccc(C(N)=O)cc2)c2cccnc2Cl)c1 | ROD | MTT | >34.03 µM
COc1ccc(C(=O)CSc2nc(C(C)CC3CCCCC3)c(C)c(=O)[nH]2)cc1 | ROD | MTT | 43 µM
CC(C)c1nc(C(=O)NCc2ccc(F)cc2)c(O)c(=O)n1C | ROD | MTT | 0.086 µM
CC(c1cc(=O)[nH]c(SCC(=O)c2ccccc2)n1)C1CCCCC1 | ROD | MTT | 266 µM
Nc1ccn([C@H]2CC[C@@H](CO)O2)c(=O)n1 | ROD | MTT | 1.4 µM
Cn1ncc2c1S(=O)(=O)N(CCc1ccccc1)C(=O)N2CCc1ccc(Cl)cc1Cl | ROD | MTT | >277.2 µM

The first 5 rows once more:

{"SMILES": "N#Cc1ccc(Nc2nc(Oc3ccc(-c4ccc(C#N)cc4)cc3[N+](=O)[O-])c3sccc3n2)cc1", "strain or isolate": "ROD", "method": "MTT", "value": ">107.2 µM"}
{"SMILES": "O=C(O)c1cn(CCO)c2ccc(Cc3ccccc3)cc2c1=O", "strain or isolate": "ROD", "method": "MTT", "value": "4 µM"}
{"SMILES": "C1CNCCNCCCNCCNC1", "strain or isolate": "ROD", "method": "cytopathic effect / MTT", "value": "54 µg/mL"}
{"SMILES": "Cc1cc(C)cc(C(=O)c2cccnc2Nc2ccc(O)cc2)c1", "strain or isolate": "ROD", "method": "MTT", "value": ">6.44 µM"}
{"SMILES": "Cn1ncc2c1S(=O)(=O)N(CCc1ccccc1)C(=O)N2CCc1ccc(Cl)cc1", "strain or isolate": "ROD", "method": "MTT", "value": ">56.2 µM"}

ECn: concentration that inhibits the pathogen or its effect by n%.